Biological target: Replicase polyprotein 1ab (Severe acute respiratory syndrome coronavirus 2) (UniProt P0DTD1)
Assay: Inhibition of full-length SARS-CoV-2 PLpro expressed in Escherichia coli BL21(DE3) using RLRGG-AMC as substrate at 50 uM preincubated for 10 mins followed by substrate addition measured for 5 mins by FRET assay relative to control
Details: time 15.0 min

O=C(O)[C@H]1O[C@@H](Oc2cc3oc(-c4ccccc4)cc(=O)c3c(O)c2O)[C@H](O)[C@@H](O)[C@@H]1O [BAICALIN]
inhibition: < 50%
